Compound potency records, mixed from different reports. Data source: NIAID ChemDB in PubChem.

Common to all: host cell toxicity; endpoint: CC50

Lines come from different laboratories, so protocols vary. CCn is the concentration with n% toxicity to the cells. Two numbers with a dash give a range or band. An empty or dashed field is not shown.

| structure | read by | cell line | result |
|---|---|---|---|
| O=c1cc(N2Cc3ccc(-c4ccccc4)cc3C2)c2cccnc2n1O |  | HeLa | <100 µM |
| CC(C)N(Cc1cccc(OCCCCCC(=O)OC(=O)O)c1)C(=O)c1ccc(-c2cccc3ccccc23)cc1 |  | HEK 293 | >20 µM |
| NC(=S)Nc1cccc(OCCCCCOc2ccccc2-c2ccc(C(F)(F)F)cc2)c1 | MTS | Ava5-EG(delta4AB)SEAP | >1 µM |
| O=C(Cc1ccc(Cl)c(Cl)c1)NCCCc1ccc2c(n1)NCCC2 |  | PBMC | 6.4 µM |
| S=C(Nc1ccc(N2CCOCC2)cc1)Nc1ccc2c(c1)Cc1cc(Br)ccc1-2 | MTS | Ava5-EG(delta4AB)SEAP | >1 µM |
| CCOC(=O)C1=C(CN2CC(F)(F)[C@@H]3[C@H]2CON3C[C@@H](OC)C(C)(C)C(=O)O)NC(c2nccs2)=N[C@H]1c1cccc(F)c1Cl | WST / absorbance | HepG2.2.15 | >50 µM |
| NC(=S)Nc1cccc(OCCCCCOc2ccnc3ccccc23)c1 | MTS | Ava5-EG(delta4AB)SEAP | >1 µM |
| CCOC(=O)C1=C(CN2CC(F)(F)[C@H]3[C@@H]2CCN3C[C@](C)(F)C(=O)O)NC(c2nccs2)=N[C@H]1c1cccc(F)c1C | WST / absorbance | HepG2.2.15 | 49.4 µM |
| COc1cc(C)ccc1OCCOc1ccccc1F |  | HEK 293 | >20 µM |
| O=C(NCCc1ccc2c(c1)NCCC2)NCc1ccc(Cl)c(Cl)c1 |  | PBMC | 50 µM |
| CCOC(=O)C1=C(CN2CC(F)(F)[C@@H]3[C@H]2CON3C[C@@H](OC)C(C)(C)C(=O)O)NC(c2nccs2)=N[C@H]1c1ccc(F)c(F)c1F | WST / absorbance | HepG2.2.15 | 41.7 µM |
| NC(=S)Nc1cccc(OCCCCCCCOc2cccc3ccccc23)c1 | MTS | Ava5-EG(delta4AB)SEAP | >1 µM |
| Cn1ncc2c(NC(=O)NCCc3ccc4c(n3)NCCC4)cccc21 |  | PBMC | 22 µM |
| COc1cccc(CNc2cc(=O)n(O)c3ncccc23)c1 |  | HeLa | <100 µM |
| Fc1ccc(NC(=S)NCCc2ccc3c(n2)NCCC3)cc1C(F)(F)F |  | PBMC | 6.87 µM |
| CCOC(=O)c1c(NC(CO)c2ccccc2)c2cccnc2n(O)c1=O |  | HeLa | <100 µM |
| COc1ccc(OCCCCCOc2cccc(NC(N)=S)c2)cc1 | MTS | Ava5-EG(delta4AB)SEAP | >1 µM |
| O=c1cc(-c2cnc3[nH]ccc3c2)c2cccnc2n1O |  | HeLa | <100 µM |
| CCOc1ncccc1NC(=O)NCCc1ccc2c(n1)NCCC2 |  | PBMC | 50 µM |
| CCOC(=O)CCCCCOc1cccc(CN(C(=O)c2ccc(-c3cccc(Oc4ccccc4)c3)cc2)C(C)C)c1 |  | HEK 293 | 13.5–20 µM |
| CCOC(=O)C1=C(CN2CC(F)(F)[C@@H]3[C@H]2CON3CC[C@](C)(OC)C(=O)O)NC(c2nccs2)=N[C@H]1c1ccc(F)c(F)c1Cl | WST / absorbance | HepG2.2.15 | >50 µM |
| NC(=S)Nc1ccc(OCCCCCOc2ccccc2)cc1 | MTS | Ava5-EG(delta4AB)SEAP | >1 µM |
| C#CCCC(=O)CCCc1ccc(OC)c(OC)c1 |  | HEK 293 | <7.5 µM |

For reference, 2 entries again:

| structure | read by | cell line | result |
|---|---|---|---|
| CCOC(=O)C1=C(CN2CC(F)(F)[C@@H]3[C@H]2CON3CC[C@](C)(OC)C(=O)O)NC(c2nccs2)=N[C@H]1c1ccc(F)c(F)c1Cl | WST / absorbance | HepG2.2.15 | >50 µM |
| Cn1ncc2c(NC(=O)NCCc3ccc4c(n3)NCCC4)cccc21 |  | PBMC | 22 µM |